Values quoted from earlier work in patent US4925831A, “Aminoalkyl naphthalenediols as host resistance enhancers against viral infection” (priority 1987, dated 1990).

Test system: AIDS or ARC patients
Conditions: result in words

recombinant IL-2: Protein made by white blood cells
clinical efficacy: not encouraging
